Results of unrelated studies side by side (data: NIAID ChemDB).

Shared fields: growth or infection tests; organism: HIV-1

An empty or dashed field is not shown. a–b is a range or a potency band. Rows are shuffled and stem from different studies. ECn: concentration that inhibits the pathogen or its effect by n%.

smiles | endpoint | conditions | read by | strain | mutations | cell line | result
C/C(=C(/CCO)SS/C(CCO)=C(\C)N(C=O)Cc1cnc(C)nc1N)N(C=O)Cc1cnc(C)nc1N | EC50 |  | cytopathic effect / XTT | RF |  | CEM + CEM-SS | >535 µM
O=C(NCCCN1CCN(CCCNC(=O)Nc2ccc(Cl)cc2)CC1)Nc1ccc(Cl)cc1 | EC50 |  | luminescence | NL4-3 |  | H9 | 3.54 µM
Cc1nc2c(ccn2Cc2ccc(F)c(F)c2)c(-c2cc(F)c3c(c2C)CCCO3)c1[C@H](OC(C)(C)C)C(=O)O | EC50 |  | luciferase |  |  | MT-4 | 0.006 µM
CC(=O)SCCOP(=O)(OCCSC(C)=O)OC[C@@H]1C=C[C@H](n2cc(C)c(=O)[nH]c2=O)O1 | EC50 |  |  |  |  | PBMC | 0.007 µM
Fc1cccc(N=Cc2cc3ccccc3nc2Nc2cccc(F)c2)c1 | EC50 |  | luminescence | VB59 |  | TZM-bl | >130 µM
CC1CN(C(=O)c2ccccc2)CCN1C(=O)C(=O)c1ccc2ccccc2c1 | EC50 |  | luciferase / reporter gene |  |  | HeLa | <1 µM
CC(C)(C)c1ccc(C(=O)C2Oc3ccccc3C3CC(c4ccc(C(=O)NC5CCCC5)cc4)=NN23)cc1 | EC50 |  | GFP / reporter gene | LAI |  | MT-4 | <1 µM
C[C@H](NC(=O)c1ccccc1SSc1ccccc1C(=O)N[C@@H](C)C(=O)O)C(=O)O | EC50 |  | cytopathic effect / XTT |  |  | CEM | 38 µM
Cc1nc2c(ccn2Cc2cccc(Cl)c2F)c(-c2ccc3c(c2)CCCO3)c1C(OC(C)(C)C)C(=O)O | EC50 |  | luciferase |  |  | MT-4 | 0.068 µM
C[C@@H]1CCO[C@H]2Cn3cc(C(=O)NCc4ccc(F)cc4F)c(=O)c(O)c3C(=O)N12 | EC50 |  | luciferase | NL4-3 | M184I | TZM-bl | 0.001 µM
O=C(NCCc1ccccn1)c1ccc(C2=NN3C(C(=O)c4ccc(Br)cc4)Oc4ccccc4C3C2)cc1 | EC50 |  | GFP / reporter gene | LAI |  | MT-4 | 1–10 µM
Cc1ccc(N=Cc2cc3ccccc3nc2Nc2ccc(C)cc2)cc1 | EC50 |  | luminescence | UG070 |  | TZM-bl | >130 µM
CC(=O)c1ccc(C)cc1NC(C(N)=O)c1c(Cl)cccc1Cl | EC50 |  | cytopathic effect / MTT | IIIB |  | MT-4 | 0.013 µM
NC(=O)CNC(=O)c1[nH]c2ccc(Cl)cc2c1S(=O)(=O)c1ccccc1 | EC50 |  | p24 | EFV-resistant (RT K103R V179D P225H) |  | C8166 | <2.7 µM
NCCC(NC(=O)c1ccc(-c2ccc(C(F)(F)F)cn2)[nH]1)c1csc(C(=O)NCCO)n1 | EC50 | pseudotyped | luciferase | HXB2 |  | TZM-bl | >21.3 µM
COc1ccc2cc(CC(=O)N3CCN(C(=O)c4ccccc4)C[C@H]3C)ccc2c1 | EC50 |  | luciferase / reporter gene |  |  | HeLa | <1 µM
COc1cc2c(c(OC)c1OC)-c1c(cc3c(c1OC)OCO3)C[C@H](C)[C@@](C)(O)C2 | EC50 |  | p24 | IIIB |  | H9 | 12 µg/mL
COC(=O)N[C@H](C(=O)N[C@@H](Cc1ccccc1)C[C@H](O)[C@H](Cc1ccc(-c2ccc(C#N)nc2)cc1)NC[C@@H](NC(=O)OC)C(C)(C)C)C(C)(C)C | EC50 | 50% human serum | MTT | pNL4-3 |  | MT-4 | 23 nM
COc1cc2c(c(OC)c1OC)-c1c(cc(OC)c(OC)c1OC)C[C@H](C)[C@H](C)C2 | EC50 |  | p24 | IIIB |  | H9 | 1 µg/mL
Nc1nc(NC2CC2)c2ncn([C@H]3C=C[C@@H](CO)C3)c2n1 | EC50 |  | p24 | IIIB |  | PBMC | 0.63 µM
C[C@@H]1CN(C(=O)c2ccccc2)CCN1C(=O)C(=O)c1cnc2ccccc2n1 | EC50 |  | luciferase / reporter gene |  |  | HeLa | <1 µM
NCCC(NC(=O)c1ccc(-c2ccc(C(F)F)cn2)[nH]1)c1nc(CO)cs1 | EC50 | pseudotyped | luciferase | HXB2 |  | TZM-bl | >25.4 µM
Nc1nc(N)c2ncn([C@@H]3O[C@H](CO)C[C@@H]3F)c2n1 | EC50 |  | p24 | LAI |  | PBL(PHA STIM.) + PBL | <6.4 µM
COC(=O)N[C@H](C(=O)N[C@@H](Cc1ccccc1)C[C@H](O)[C@H](Cc1ccc(-c2ccc(CO)nc2)cc1)NC[C@@H](NC(=O)OC)C(C)(C)C)C(C)(C)C | EC50 | 50% human serum | MTT | pNL4-3 |  | MT-4 | 45 nM
O=C(O)C(=O)/C=C(\O)c1cc(Cc2ccccc2)cn(Cc2cccc(Cl)c2F)c1=O | EC50 |  |  |  |  | MAGI | 0.7 µM
Cc1cc(C)cc(S(=O)(=O)c2c(C(=O)NCC(=O)NN)[nH]c3ccc(Cl)cc23)c1 | EC50 |  | p24 | IIIB |  | C8166 | <0.03 µM
O=C(O)C(=O)/C=C(\O)c1cc(Cc2ccc(F)cc2)cn(Cc2cccc(F)c2F)c1=O | EC50 |  |  |  |  | MAGI | 0.7 µM
Cc1cn([C@H]2C=C[C@@H](CO)O2)c(=O)[nH]c1=O | EC50 |  | cytopathic effect / MTT | HXB2 | RT-K65R/T215Y | MT-4 | 0.48 µM
CCN(CC)C(=S)S | EC50 |  | cytopathic effect / XTT | RF |  | CEM + CEM-SS | >100 µM
CC(C)(C)OC(=O)N1CCN(C(=O)c2ccc(C3=NN4C(C(=O)c5ccc(F)cc5)Oc5ccccc5C4C3)cc2)CC1 | EC50 |  | GFP / reporter gene | LAI |  | MT-4 | >10 µM
Cc1nc2c(ccn2Cc2ccc(F)c(F)c2)c(-c2ccc3c(c2C)CCCO3)c1[C@H](OC(C)(C)C)C(=O)O | EC50 |  | luciferase |  |  | MT-4 | 0.008 µM
C[C@@H]1CN(C(=O)c2ccccc2)CCN1C(=O)C(F)(F)c1ccc2ccccc2c1 | EC50 |  | luciferase / reporter gene |  |  | HeLa | <1 µM
CNC(=O)c1ccccc1SSc1ccccc1C(=O)NC | EC50 |  | cytopathic effect / XTT |  |  | CEM | >11 µM
COC(=O)N[C@H](C(=O)N[C@@H](Cc1ccccc1)C[C@H](O)[C@H](Cc1ccc(-c2ccccc2)cc1)NC[C@@H](NC(=O)OC)C(C)(C)C)C(C)(C)C | EC50 |  | MTT | pNL4-3 |  | MT-4 | 4 nM
O=C1c2ccccc2C(=O)N1C/C=C\Cn1cc(F)c(=O)[nH]c1=O | EC50 |  | syncytia |  |  | CEM | >100 µM
CCCc1ccc(C(=O)C2Oc3ccccc3C3CC(c4ccc(C(=O)NC5CCCC5)cc4)=NN23)cc1 | EC50 |  | GFP / reporter gene | LAI |  | MT-4 | <1 µM
NC/C=C/Cn1cc(C(F)(F)F)c(=O)[nH]c1=O | EC50 |  | syncytia |  |  | CEM | >50 µM
CC(=O)c1ccc(C)cc1N[C@H](C(N)=O)c1c(Cl)cccc1Cl | EC50 |  | cytopathic effect / MTT | IIIB |  | MT-4 | 0.005 µM
CNC(=O)c1cccc(-c2ccc(C[C@H](NC[C@@H](NC(=O)OC)C(C)(C)C)[C@@H](O)C[C@H](Cc3ccccc3)NC(=O)[C@@H](NC(=O)OC)C(C)(C)C)cc2)c1 | EC50 |  | MTT | pNL4-3 |  | MT-4 | 159 nM
Cc1cc(C)cc(S(=O)(=O)c2c(C(=O)NC(C)C(=O)NN)[nH]c3ccc(Cl)cc23)c1 | EC90 |  | p24 | IIIB |  | C8166 | 0.07 µM
COc1c(Br)c2c(c(OC)c1OC)-c1c(c(Br)c3c(c1OC)OCO3)C[C@@H](C)[C@@H](C)C2 | EC50 |  | p24 | IIIB |  | H9 | 4 µg/mL
Cc1cc(C#N)cc(C)c1Oc1nc(Nc2ccc(C#N)cc2)nc(N)c1Br | EC50 |  | luciferase | 94ug114.1.6 | N348I | HEK293T | 7.26 nM
COc1cccc2ccc(/C=C/C(=O)Nc3ccccc3F)nc12 | EC50 |  | luminescence | VB51 |  | PBMC | 5.49 µM
Cc1cc(C)cc(S(=O)(=O)c2c(C(N)=O)[nH]c3ccc(Cl)cc23)c1 | EC90 |  | p24 | IIIB |  | C8166 | 0.006 µM
CC(=O)c1ccc(NC(=O)c2ccccc2SSc2ccccc2C(=O)Nc2ccc(C(C)=O)cc2)cc1 | EC50 |  | cytopathic effect / XTT |  |  | CEM | 19 µM
CC1CN(C(=O)c2ccccc2)CCN1C(C#N)C(=O)c1c[nH]c2ccc(OC(F)(F)F)cc2c1=O | EC50 |  | luciferase / reporter gene |  |  | HeLa | <1 µM
N#Cc1ccc(C(=O)C2Oc3ccccc3C3CC(c4ccc(C(=O)NC5CCCC5)cc4)=NN23)cc1 | EC50 |  | GFP / reporter gene | LAI |  | MT-4 | <1 µM
COC(=O)N[C@H](C(=O)N[C@@H](Cc1ccccc1)C[C@H](O)[C@H](Cc1ccc(-c2ccc(C(C)=O)cc2)cc1)NC[C@@H](NC(=O)OC)C(C)(C)C)C(C)(C)C | EC50 |  | MTT | pNL4-3 |  | MT-4 | 1 nM
NCCC(NC(=O)c1ccc(-c2ccc(C(F)(F)F)cn2)[nH]1)c1cnc(CO)s1 | EC50 | pseudotyped | luciferase | HXB2 |  | TZM-bl | 2.1 µM
CS(=O)(=O)c1ccc(C(=O)C2Oc3ccccc3C3CC(c4ccc(C(=O)NC5CCCC5)cc4)=NN23)cc1 | EC50 |  | GFP / reporter gene | LAI |  | MT-4 | <1 µM
CC(=O)Nc1ccc(SSc2ccc(NC(C)=O)cc2C(N)=O)c(C(N)=O)c1 | EC50 |  | cytopathic effect / XTT |  |  | CEM | 5 µM
NC/C=C/Cn1cc(F)c(=O)[nH]c1=O | EC50 |  | syncytia |  |  | CEM | >100 µM
NCCC(NC(=O)c1ccc(-c2ncc(Cl)cn2)[nH]1)c1nc(CO)cs1 | EC50 | pseudotyped | luciferase | HXB2 |  | TZM-bl | >15.8 µM
O=C(O)C(=O)/C=C(\O)c1cc(Cc2cccc(Cl)c2)cn(Cc2ccc(F)c(Cl)c2)c1=O | EC50 |  |  |  |  | MAGI | 1.2 µM
Nc1ccn([C@H]2CC[C@@H](CO)O2)c(=O)n1 | EC50 |  | MTT |  | G190A | MT-4 | 0.014 µM
O=C(Nc1cccc(O)c1)c1ccccc1SSc1ccccc1C(=O)Nc1cccc(O)c1 | EC50 |  | cytopathic effect / XTT |  |  | CEM | 15 µM
O=C1c2ccccc2C(=O)N1C/C=C/Cn1cc(C(F)(F)F)c(=O)[nH]c1=O | EC50 |  | syncytia |  |  | CEM | >100 µM
O=C(O)C(=O)/C=C(\O)c1cc(Cc2ccccc2F)cn(Cc2cccc(Cl)c2)c1=O | EC50 |  |  |  |  | MAGI | 0.7 µM
COc1c2c(c(Br)c3c1-c1c(c(Br)c4c(c1OC)OCO4)C[C@H](C)[C@H](C)C3)OCO2 | EC50 |  | p24 | IIIB |  | H9 | >100 µg/mL
Fc1ccc(N=Cc2cc3ccccc3nc2Nc2ccc(F)cc2)cc1 | EC50 |  | luminescence | UG070 |  | TZM-bl | 115 µM
COC(=O)N[C@H](C(=O)N[C@@H](Cc1ccccc1)C[C@H](O)[C@H](Cc1ccc(-c2cncc(F)c2)cc1)NC[C@@H](NC(=O)OC)C(C)(C)C)C(C)(C)C | EC50 |  | MTT | pNL4-3 |  | MT-4 | 4 nM
O=C(NCc1cccc(F)c1)c1ccc(C2=NN3C(C(=O)c4ccc(F)cc4)Oc4ccccc4C3C2)cc1 | EC50 |  | GFP / reporter gene | LAI |  | MT-4 | >10 µM
O=C(O)C(=O)/C=C(\O)c1cc(Cc2ccccc2Cl)cn(Cc2ccc(F)cc2F)c1=O | EC50 |  |  |  |  | MAGI | 0.8 µM
COC(=O)N[C@H](C(=O)N[C@@H](Cc1ccccc1)C[C@H](O)[C@H](Cc1ccc(-c2cncnc2)cc1)NC[C@@H](NC(=O)OC)C(C)(C)C)C(C)(C)C | EC50 | 50% human serum | MTT | pNL4-3 |  | MT-4 | 58 nM
C[C@H]1CN(C(=O)c2ccccc2)CCN1C(C#N)C(=O)c1ccc2cnccc2n1 | EC50 |  | luciferase / reporter gene |  |  | HeLa | 1–5 µM
COc1cc2c(c(OC)c1OC)-c1c(cc3c(c1OC)OCO3)C[C@@H](C)[C@@H](C)C2 | EC50 |  | p24 | IIIB |  | H9 | 0.8 µg/mL
CN(c1ncc(Cc2cnc(N(C)C3CCN(Cc4ccccc4)CC3)nc2)cn1)C1CCN(Cc2ccccc2)CC1 | EC50 |  | luminescence | NL4-3 |  | SupT1 | 8.63 µM
CC(NC(=O)c1[nH]c2ccc(Cl)cc2c1S(=O)(=O)c1ccccc1)C(N)=O | EC50 |  | p24 | EFV-resistant (RT K103R V179D P225H) |  | C8166 | <3 µM
Cc1ccc(C)n1-c1ccc(C(=O)O)c(O)c1 | EC90 |  | luciferase / cell fusion | 93UG065 X4 CLADE D |  | PBMC/5.25M7 | 32.59 µM
Cc1c(-c2c([C@H](OC(C)(C)C)C(=O)O)cnc3ccccc23)cc(F)c2c1CCCO2 | EC50 |  |  |  |  | MT-4 | 0.018 µM
COc1cc2c(c(OC)c1OC)-c1c(cc(OC)c(OC)c1OC)C[C@](C)(O)[C@@H](C)C2 | EC50 |  | p24 | IIIB |  | H9 | >9 µg/mL
Nc1nc2c(ncn2[C@H]2CC[C@@H](CO)O2)c(=O)[nH]1 | EC50 |  | XTT | LAI |  | CEM | 2 µM